Measured values taken from BindingDB's records for 40279549.

Molecular target: Fucose-binding lectin PA-IIL (Pseudomonas aeruginosa (strain ATCC 15692 / DSM 22644 / CIP 104116 / JCM 14847 / LMG 12228 / 1C / PRS 101 / PAO1), UniProt Q9HYN5)

For `C[C@@H]1O[C@H](CNC(=O)C2CCCN2)[C@@H](O)[C@H](O)[C@@H]1O` (stereo partly specified), the IC50 was 1110 nM.
